Results deposited as PubChem BioAssay AID624099 (ICCB-Longwood, 2012)
In all, the deposit lists about 21,000 reagents; this is an unselected part. 497 of them (2.4%) were called active. 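Higher z means weaker E2 silencing; only reporter increases were scored, and knock-downs that hurt cell survival may mask genuine repressor factors.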 Reagents against one gene are numbered here. Reagent sequences are not shown.

Test: 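Knock-downs relieving repression by E2 of an HPV18 LCR luciferase reporter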 (primary screen)
Cell system: human C33A cervical carcinoma cells (HPV-negative) stably expressing BPV1 E2 and an HPV18 LCR luciferase reporter
Reagents: siRNA pool against human genes, 40 nM
Time to read-out: 72 h
Detection: 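Per-well luciferase luminescence, z-scored on each plate against the plate mean and SD with control wells left out, then averaged across three replicate plates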
Scale: mean z-score and z-score: higher = stronger reporter signal, weaker E2 silencing
Hit rule: 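Hit if mean z-score reaches 2 and two or more of three replicate z-scores also reach 2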

TNIP3 → mean z-score = -0.92; z-score, replicate A = -0.72; z-score, replicate B = -1.05; z-score, replicate C = -0.98; call = inactive
OAF → mean z-score = -0.58; z-score, replicate A = -0.85; z-score, replicate B = -0.24; z-score, replicate C = -0.63; call = inactive
THOC5 → mean z-score = -1.59; z-score, replicate A = -1.68; z-score, replicate B = -1.39; z-score, replicate C = -1.7; call = inactive
IGF2R → mean z-score = 0.45; z-score, replicate A = 0.54; z-score, replicate B = 0.73; z-score, replicate C = 0.09; call = inactive
FAM81B → mean z-score = -0.82; z-score, replicate A = -0.33; z-score, replicate B = -0.79; z-score, replicate C = -1.34; call = inactive
CCDC138 → mean z-score = 1.31; z-score, replicate A = 0.82; z-score, replicate B = 1.66; z-score, replicate C = 1.46; call = inactive
CORO6 → mean z-score = -0.79; z-score, replicate A = -1.36; z-score, replicate B = -1.32; z-score, replicate C = 0.3; call = inactive
CSNK2A1 → mean z-score = 1.31; z-score, replicate A = 1.63; z-score, replicate B = 1.18; z-score, replicate C = 1.11; call = inactive
ADORA2B → mean z-score = 0.19; z-score, replicate A = -0.05; z-score, replicate B = 0.44; z-score, replicate C = 0.18; call = inactive
MAML2 → mean z-score = -0.48; z-score, replicate A = -0.54; z-score, replicate B = -0.58; z-score, replicate C = -0.31; call = inactive
NPY → mean z-score = -0.37; z-score, replicate A = -0.37; z-score, replicate B = -0.21; z-score, replicate C = -0.54; call = inactive
NPNT → mean z-score = -0.33; z-score, replicate A = -0.36; z-score, replicate B = -0.15; z-score, replicate C = -0.47; call = inactive
NAA10 → mean z-score = -1.77; z-score, replicate A = -1.88; z-score, replicate B = -1.74; z-score, replicate C = -1.69; call = inactive
TBL1XR1 → mean z-score = -0.83; z-score, replicate A = -0.91; z-score, replicate B = -0.69; z-score, replicate C = -0.88; call = inactive
NDUFB8 → mean z-score = -0.86; z-score, replicate A = -0.86; z-score, replicate B = -0.97; z-score, replicate C = -0.75; call = inactive
PDCL3 → mean z-score = 1.6; z-score, replicate A = 1.81; z-score, replicate B = 1.54; z-score, replicate C = 1.44; call = inactive
STT3B → mean z-score = 1.37; z-score, replicate A = 1.53; z-score, replicate B = 1.2; z-score, replicate C = 1.38; call = inactive
TMEM114 → mean z-score = -0.14; z-score, replicate A = 0.2; z-score, replicate B = -0.05; z-score, replicate C = -0.58; call = inactive
CAST #1 → mean z-score = -0.34; z-score, replicate A = -0.29; z-score, replicate B = -0.4; z-score, replicate C = -0.32; call = inactive
CAST #2 → mean z-score = 0.27; z-score, replicate A = 0.31; z-score, replicate B = 0.52; z-score, replicate C = -0.02; call = inactive
RUFY1 → mean z-score = 1.02; z-score, replicate A = 1.12; z-score, replicate B = 0.7; z-score, replicate C = 1.24; call = inactive
